Assay results as given in PubChem BioAssay AID652162 (Broad Institute, 2013).
The list shows a part of the results, in another mix than the full data. Activity calls are given as the source filed them. Cut-off read from the data, not from the text of the source: active = inhibition above about 10%; inactive = the rest.

Target: Toxin B (Clostridioides difficile) (UniProt P18177)
Assay: TcdB glycohydrolase inhibitors, primary screen, biochemical, single point, plate reader (AID 652162)
Conditions: TcdB glycohydrolase enzymatic assay, at 9.99 µM, hits give high values

Structure (SMILES)	inhibition
Clc1ccc(Cl)c(NC2=NCC(CBr)S2)c1 (centres undefined)	inactive: 1.07%
COc1ccccc1OP(=O)(Nc1ccc(C)cn1)Oc1ccccc1OC	inactive: 0.235%
Cc1ccc(OP(=O)(Nc2nccs2)Oc2ccc(C)cc2)cc1	inactive: 1.27%
CN(C(=O)Cc1ccc(Cl)c(Cl)c1)[C@H]1CCCC[C@H]1N1CCCC1	inactive: -2.98%
Cc1ccc(N/C(=N/P(=O)(N2CCOCC2)N2CCOCC2)N2CCOCC2)cc1	inactive: -1.14%
NC(=O)c1cc([N+](=O)[O-])cc([N+](=O)[O-])c1N	inactive: 3.05%
O=C(NC(Sc1ccncn1)C(Cl)(Cl)Cl)c1ccccc1 (centres undefined)	inactive: 0.133%
Nc1cc(N)c2nonc2c1[N+](=O)[O-]	inactive: 0.634%
CC(C)CC(=O)NC(Sc1ccc(Cl)cc1)C(Cl)(Cl)Cl (centres undefined)	inactive: 0.672%
CCn1c(=O)n(C2CCN(CC3CCCCCCC3)C[C@H]2CO)c2ccccc21 (some centres undefined)	inactive: 0.473%
CN(C(=O)Cc1ccc(Cl)c(Cl)c1)[C@H]1CCCC[C@@H]1N1CCCC1	inactive: 2.85%
Cc1ccc(NP(=O)(Oc2ccccc2F)Oc2ccccc2F)nc1	inactive: 1.33%
O=P(Nc1nc2ccc(Cl)cc2s1)(c1ccccc1)c1ccccc1	inactive: 2.35%
CN(C)P(=O)(N(C)C)n1c(Nc2ccccc2)nnc1-c1ccccc1	inactive: 0.958%
CC(=O)Nc1ccc([As](=O)(O)O)cc1	inactive: -0.215%
O=C(O)c1ccccc1[As](=O)(O)O	inactive: 0.633%
CCCC1OP(N)(=O)OCC1CC (centres undefined)	inactive: 1.79%
Nc1cccc2ccc([As](=O)(O)O)cc12	inactive: -1.78%
CN(C(=O)Cc1ccccc1)C1CC[C@@]2(CCCO2)C[C@@H]1N1CCCC1 (some centres undefined)	inactive: 1.36%
O=C(Nc1cc([As](=O)(O)O)ccc1O)c1ccccc1	inactive: -8.98%
O=P1(N(CCCl)CCCl)OCCCS1 (centres undefined)	inactive: 0.122%
O=C(O)CNc1ccc([As](=O)(O)O)cc1	inactive: 0.391%
COC(=O)C1(C)COP(=O)(Nc2ccccc2)OC1 (centres undefined)	inactive: -0.661%
O=[N+]([O-])c1cccc(NC2=NCC(CBr)S2)c1 (centres undefined)	inactive: 1.13%
O=[N+]([O-])c1ncn(CCn2ncnc2[N+](=O)[O-])n1	inactive: -0.004%

Structure (SMILES)	inhibition
CC(C)(C)C(=O)NC(Sc1ccncn1)C(Cl)(Cl)Cl (centres undefined)	inactive: -0.821%
Cc1ccc(NP(=O)(Oc2ccccc2)Oc2ccccc2)nc1	inactive: -1.93%
O=[N+]([O-])c1cc([N+](=O)[O-])c(CCNc2ccccc2)c([N+](=O)[O-])c1	inactive: 2.09%
COc1ccc(C2=NCC(CBr)S2)cc1 (centres undefined)	inactive: 1.45%
c1cc(-c2nn[nH]n2)ccc1-c1nn[nH]n1	inactive: 0.94%
CC(C)c1nc(Nc2ccccc2)n(P(=O)(N(C)C)N(C)C)n1	inactive: 1.24%
CC(C)=N/N=C(\N)N[N+](=O)[O-]	inactive: 0.044%
CCN(/C(=N/P(=O)(N1CCOCC1)N1CCOCC1)N1CCOCC1)c1ccc(OC)cc1	inactive: -5.15%
Nc1ccc([As](=O)(O)c2ccc(N)cc2)cc1	inactive: 0.266%
C[N+]1=C2C=CC=CC=C2SC12C([N+](=O)[O-])=CC([N+](=O)[O-])=C[C-]2[N+](=O)[O-] (centres undefined)	inactive: -1.57%
O=P(Nc1nc2ccccc2s1)(c1ccccc1)c1ccccc1	inactive: 1.47%
C[C@H]1OP(=O)(Oc2ccccc2)[C@H](O)[C@H](O)[C@H]1N=[N+]=[N-] (some centres undefined)	inactive: 0.839%
CN(C)C1(CNC(=O)c2ccc(Cl)c(S(N)(=O)=O)c2)CCCCC1	inactive: 0.429%
O=P(Nc1ccccn1)(c1ccc(Br)cc1)c1ccc(Br)cc1	inactive: 2.03%
COc1ccc(N)c([N+](=O)[O-])c1[N+](=O)[O-]	inactive: 2.84%
Nc1ccc(CCCCOc2ccccc2)cc1	inactive: -0.944%
C/C(N)=N\P(=O)(OCc1ccccc1)OCc1ccccc1	inactive: 0.528%
C(Cc1nn[nH]n1)Cc1nn[nH]n1	inactive: 0.462%
Nc1ccc([As](=O)(O)c2ccc([N+](=O)[O-])cc2)cc1	inactive: 1.25%
O=[As](O)(c1ccccc1)c1ccc(O)cc1	inactive: -1.23%
CC(=O)NC(SC(=S)N(C)C)C(Cl)(Cl)Cl (centres undefined)	inactive: -1.14%
O=[N+]([O-])c1ncn(CCn2cnc([N+](=O)[O-])n2)n1	inactive: 0.781%
O=P1(N(CCCl)CCCl)OCCC2CCCCN21 (centres undefined)	inactive: -6.42%
c1ccc(-c2nn[nH]n2)c(-c2nn[nH]n2)c1	inactive: -0.182%
Cc1ccc(NP(=O)(Oc2cccc(C)c2)Oc2cccc(C)c2)nc1	inactive: -0.597%

Structure (SMILES)	inhibition
O=C(NC1CCS(=O)(=O)C1)NP(=S)(Oc1ccccc1)Oc1ccccc1 (centres undefined)	inactive: 0.977%
CCNC(=S)/N=C(\N)N[N+](=O)[O-]	inactive: 0.333%
CC(NC(=O)COC(=O)C(O)(c1ccccc1)c1ccccc1)c1ccccc1 (centres undefined)	inactive: 4.79%
Cc1ccccc1OP(=O)(Nc1ccccn1)Oc1ccccc1C	inactive: 1.33%
O=c1c2cc([N+](=O)[O-])ccc2[nH]c2c([N+](=O)[O-])cc([N+](=O)[O-])cc12	inactive: 0.906%
CN(C)C(=O)Oc1noc2ccccc12	inactive: 1.57%
O=C(OC1CN2CCC1CC2)c1ccccc1 (centres undefined)	inactive: 0.405%
Cc1ccc(OP(=O)(Nc2ccccn2)Oc2ccc(C)cc2)cc1	inactive: 0.373%
CC(C)(C)C(=O)NC(Sc1ccccc1)C(Cl)(Cl)Cl (centres undefined)	inactive: 1.33%
CCc1cc(O)c([N+](=O)[O-])c(C)c1[N+](=O)[O-]	inactive: 0.215%
CCOc1ccc(C2=NCC(CBr)S2)cc1 (centres undefined)	inactive: 1.08%
CC(=O)Nc1ccc([As](=O)(O)O)c(O)c1	inactive: -0.528%
CC(=O)Nc1ccc(Oc2c([N+](=O)[O-])cc([N+](=O)[O-])cc2[N+](=O)[O-])cc1	active: 30.3%
Cc1ccccc1CN(C)C(=O)COC(=O)C(O)(c1ccccc1)c1ccccc1	inactive: -0.328%
C[C@H]1OP(=O)(Oc2ccccc2)C[C@@H]2O[C@@H]21 (some centres undefined)	inactive: 1.86%
C[C@@H]1C=CCP(=O)(Oc2ccccc2)O1 (some centres undefined)	inactive: -14.2%
CC(=O)c1ccc(N2CC2c2ccncc2)cc1 (centres undefined)	inactive: 0.877%
N#C/C(=C\c1ccc(N(CCBr)CCBr)cc1)C(N)=O	inactive: 2.17%
COC(=O)C1(C)COP(=O)(NCc2ccccc2)OC1 (centres undefined)	inactive: 0.384%
O=[As](O)(c1cccc(O)c1)c1cccc(O)c1	inactive: -0.416%
O=C(OC1CN2CCC1CC2)c1ccc(Cl)cc1 (centres undefined)	inactive: 0.006%
O=[As](O)(O)c1cccnc1	inactive: 0.923%
COc1cc(C(=O)NCC2(N3CCOCC3)CCCCC2)cc(Cl)c1OC(C)C	inactive: 2.84%
CS(=O)(=O)c1ccc(Cl)c(NC(=O)COC(=O)C(O)(c2ccccc2)c2ccccc2)c1	inactive: 0.834%
CCOP(=O)(Nc1cccc2ccccc12)OCC	inactive: 0.964%

Structure (SMILES)	inhibition
Cc1ccc(NCCc2c([N+](=O)[O-])cc([N+](=O)[O-])cc2[N+](=O)[O-])cc1	inactive: 0.139%
Nc1cccc2c([As](=O)(O)O)cccc12	inactive: -0.24%
CCCOP(=S)(Nc1nc(N)cc(=O)[nH]1)OCCC	inactive: -3.84%
O=C(O)COc1ccc([As](=O)(O)O)cc1[N+](=O)[O-]	inactive: 1.01%
Nc1ccccc1[As](=O)(O)c1ccccc1	inactive: 1.12%
CCOP1(=S)c2c(C)nn(CCC#N)c2N=C(c2ccccc2F)N1C (centres undefined)	inactive: -1.07%
O=P(Nc1nccs1)(Oc1ccccc1)Oc1ccccc1	inactive: 0.6%
N#CCCN(C(=O)COC(=O)C(O)(c1ccccc1)c1ccccc1)c1ccc(F)cc1	inactive: 1.78%
CCOP1(=S)c2c(C)nn(CCC#N)c2N=C(c2ccc(F)cc2)N1C (centres undefined)	inactive: -0.093%
CN(C(=O)Cc1ccccc1)[C@@H]1CC[C@]2(CCCO2)C[C@H]1N1CCCC1	inactive: 0.935%
CN(C)C(=O)c1cc([N+](=O)[O-])cc2c1-c1c(cc([N+](=O)[O-])cc1[N+](=O)[O-])C2=O	inactive: 0.211%
CN(C(=O)Cc1ccc(Cl)c(Cl)c1)[C@H]1CC[C@@]2(CCCO2)C[C@@H]1N1CCCC1	inactive: -0.718%
NC(=O)Nc1ccc([As](=O)(O)O)cc1	inactive: 0.387%
CN(C)C1(CNC(=O)c2ccc(S(C)(=O)=O)cc2)CCCCC1	inactive: -0.987%
O=C(/C=C/c1ccccc1)OC1CN2CCC1CC2 (centres undefined)	inactive: 0.852%
CCCC1OP(=O)(Nc2ccccc2)OCC1CC (centres undefined)	inactive: 0.185%
Cc1ccc(C(=O)OC2CN3CCC2CC3)cc1 (centres undefined)	inactive: -0.598%
CC1CCC(C(C)C)C(OP(=O)(Nc2ccccn2)c2ccccc2)C1 (centres undefined)	inactive: 3.62%
Nc1cccc([As](=O)(O)c2ccccc2)c1	inactive: 1.11%
O=[As](O)(c1cccs1)c1cccs1	inactive: 0.368%
NS(=O)(=O)c1cccc(NC(=O)COC(=O)C(O)(c2ccccc2)c2ccccc2)c1	inactive: 2.05%
Cc1ccc(S(=O)(=O)N(CCCN)CCCc2c(C)nc(N)[nH]c2=O)cc1	inactive: 0.255%
O=P1(N(CCCl)CCCl)NCCC(C(F)(F)F)O1 (centres undefined)	inactive: 1.76%
CC(C)(C)C(=O)NC(Sc1ncccn1)C(Cl)(Cl)Cl (centres undefined)	inactive: 0.206%
